T1: hERG, Q12809
T1 chain: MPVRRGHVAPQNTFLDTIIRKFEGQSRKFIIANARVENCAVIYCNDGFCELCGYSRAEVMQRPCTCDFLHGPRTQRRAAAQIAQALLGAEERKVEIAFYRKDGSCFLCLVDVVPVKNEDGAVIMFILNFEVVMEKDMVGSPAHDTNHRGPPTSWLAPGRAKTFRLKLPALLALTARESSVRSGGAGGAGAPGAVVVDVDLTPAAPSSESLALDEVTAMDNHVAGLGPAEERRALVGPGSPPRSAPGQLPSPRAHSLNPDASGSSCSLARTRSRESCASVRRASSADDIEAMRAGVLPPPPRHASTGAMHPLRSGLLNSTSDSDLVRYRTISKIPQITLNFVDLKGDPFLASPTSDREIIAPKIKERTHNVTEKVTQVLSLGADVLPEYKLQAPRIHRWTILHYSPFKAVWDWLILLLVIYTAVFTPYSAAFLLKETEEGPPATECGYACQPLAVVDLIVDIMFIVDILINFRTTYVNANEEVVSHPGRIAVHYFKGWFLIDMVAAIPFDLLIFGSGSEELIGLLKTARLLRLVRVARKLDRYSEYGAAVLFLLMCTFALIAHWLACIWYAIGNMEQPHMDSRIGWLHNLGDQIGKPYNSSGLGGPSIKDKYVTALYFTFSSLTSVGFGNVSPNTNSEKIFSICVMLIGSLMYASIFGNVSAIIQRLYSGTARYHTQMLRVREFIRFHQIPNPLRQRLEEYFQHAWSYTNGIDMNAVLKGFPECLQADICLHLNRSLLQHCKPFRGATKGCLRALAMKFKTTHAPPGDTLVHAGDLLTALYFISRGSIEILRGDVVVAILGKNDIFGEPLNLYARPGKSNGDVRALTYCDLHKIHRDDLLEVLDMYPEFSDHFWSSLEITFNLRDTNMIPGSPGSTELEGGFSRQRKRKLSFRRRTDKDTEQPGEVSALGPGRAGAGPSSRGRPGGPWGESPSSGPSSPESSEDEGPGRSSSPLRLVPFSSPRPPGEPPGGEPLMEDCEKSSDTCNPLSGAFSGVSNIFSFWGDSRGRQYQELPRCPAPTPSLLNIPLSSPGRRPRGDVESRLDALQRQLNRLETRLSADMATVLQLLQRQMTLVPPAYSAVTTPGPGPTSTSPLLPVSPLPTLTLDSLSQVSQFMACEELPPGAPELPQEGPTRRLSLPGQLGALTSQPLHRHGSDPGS

B1: SEQ ID NO: 10 (peptide)
peptide: GSQVQTNVKCQGGSCASVCRREIGVAAGKCINGKCVCYRN
modifications: not checked
B2: SEQ ID NO: 39 (peptide)
peptide: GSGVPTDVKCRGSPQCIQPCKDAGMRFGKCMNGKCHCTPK
modifications: not checked
B3: SEQ ID NO: 31 (peptide)
peptide: GSECLEIFKACNPSNDQCCKSSKLVCSRKTRWCKYQIG
modifications: not checked
B4: SEQ ID NO: 16 (peptide)
peptide: GSQFCGTNGKPCVNGQCCGALRCVVTYHYADGVCLKMNP
modifications: not checked

Biological target: 5HT3a
Test: cell-based or functional assay

Binder | % activity at 0.2 µM | % activity at 20 µM
B1 | 90% | –
B2 | 67% | 55%
B3 | 75% | 84%
B4 | 114% | 103%

Biological target: Cav2.1
Test: cell-based or functional assay

Binder | % activity at 0.2 µM | % activity at 20 µM
B4 | 113% | 92%

Biological target: Cav2.2
Test: cell-based or functional assay

Binder | % activity at 0.2 µM | % activity at 20 µM
B2 | 117% | –
B4 | 124% | 104%

Biological target: GABA
Test: cell-based or functional assay

Binder | % activity at 0.2 µM | % activity at 20 µM
B1 | 129% | –
B2 | 111% | –
B4 | 102% | 109%

Biological target: Kir2.1
Test: cell-based or functional assay

Binder | % activity at 0.2 µM | % activity at 20 µM
B1 | 100% | –
B4 | 98% | 92%

Biological target: Kv1.1
Test: cell-based or functional assay

Binder | % activity at 0.2 µM | % activity at 20 µM
B2 | 37% | 21%
B4 | 84% | 67%

Biological target: Kv1.2
Test: cell-based or functional assay

Binder | % activity at 0.2 µM | % activity at 20 µM
B1 | 135% | –
B3 | 128% | 45%
B4 | 78% | 61%

Biological target: Kv1.3
Test: cell-based or functional assay

Binder | % activity at 0.2 µM | % activity at 20 µM
B2 | 7% | 1%
B4 | 92% | 92%

Biological target: Kv1.3 potassium channel (human KCNA3 gene) (human), P22001
Test: cell-based or functional assay

Binder | IC50 of current inhibition, TP1 | IC50 of current inhibition, TP6
B1 | > 1 µM | > 1 µM

Biological target: Kv1.5 potassium channel (human KCNA5 gene) (human), P22460
Test: cell-based or functional assay

Binder | IC50 of current inhibition, TP1 | IC50 of current inhibition, TP6
B1 | > 1 µM | > 1 µM

Biological target: Kv2.1
Test: cell-based or functional assay

Binder | % activity at 0.2 µM | % activity at 20 µM
B2 | 118% | –
B3 | 111% | 111%
B4 | 114% | 98%

Biological target: NR2A
Test: cell-based or functional assay

Binder | % activity at 0.2 µM | % activity at 20 µM
B4 | 101% | 95%

Biological target: NR2B
Test: cell-based or functional assay

Binder | % activity at 0.2 µM | % activity at 20 µM
B4 | 88% | 91%

Biological target: Nav1.3 sodium channel (human SCN3A gene) (human), Q9NY46
Test: cell-based or functional assay

Binder | IC50 of current inhibition, TP1 | IC50 of current inhibition, TP2
B1 | > 1 µM | > 1 µM

Biological target: Nav1.4 sodium channel (human SCN4A gene) (human), P35499
Test: cell-based or functional assay

Binder | IC50 of current inhibition, TP1 | IC50 of current inhibition, TP2
B1 | > 1 µM | > 1 µM

Biological target: Nav1.5
Test: cell-based or functional assay

Binder | % activity at 20 µM (TP1) | % activity at 20 µM (TP2) | % activity at 0.2 µM (TP1) | % activity at 0.2 µM (TP2)
B2 | 111% | 114% | – | –
B3 | – | – | 87% | 84%
B4 | 93% | 93% | 107% | 104%

Biological target: Nav1.5 cardiac sodium channel (human SCN5A gene) (human), Q14524
Test: cell-based or functional assay

Binder | IC50 of current inhibition, TP1 | IC50 of current inhibition, TP2
B1 | > 1 µM | > 1 µM

Biological target: Nav1.7
Test: cell-based or functional assay

Binder | % activity at 0.2 µM (TP1) | % activity at 0.2 µM (TP2) | % activity at 20 µM (TP1) | % activity at 20 µM (TP2)
B2 | 42% | 39% | – | –
B3 | – | – | -2% | -5%
B4 | 86% | 91% | 66% | 43%

Biological target: Nav1.7 sodium channel (human SCN9A gene) (human), Q15858
Test: cell-based or functional assay

Binder | IC50 of current inhibition, TP1 | IC50 of current inhibition, TP2
B1 | > 1 µM | > 1 µM

Biological target: TRPA1
Test: cell-based or functional assay

Binder | % activity at 0.2 µM | % activity at 20 µM
B4 | 99% | 116%

Biological target: TRPV1
Test: cell-based or functional assay

Binder | % activity at 20 µM | % activity at 0.2 µM
B2 | 83% | –
B3 | 71% | –
B4 | 88% | 107%

Biological target: T1, hERG, Q12809
Test: cell-based or functional assay

Binder | % activity at 20 µM | % activity at 0.2 µM
B1 | 80% | –
B3 | 68% | –
B4 | 71% | 74%

Biological target: α3β4 nicotinic receptor
Test: cell-based or functional assay

Binder | % activity at 20 µM | % activity at 0.2 µM
B3 | 90% | –
B4 | 95% | 100%

Biological target: α4β2 nicotinic receptor
Test: cell-based or functional assay

Binder | % activity at 0.2 µM | % activity at 20 µM
B4 | 83% | 72%
